For at least one entry, the source does not settle the construct or the ends of the probe. At least one verdict was read from the data and is not stated in words by the source.
Biological target: nsp9 (SARS-CoV-2) (UniProt P0DTD1)
Experiment: EMSA
Conditions: 10 mM HEPES pH 8.0, 50 mM KCl, 1 mM EDTA, 0.05% Triton X-100, 5% glycerol, 30 min at 4 °C, recombinant protein, protein details: His-SUMO tag removed with Ulp1, label: 5'-FAM

GCTTTGATTTCG [12-mer ssDNA]: binds (single-stranded DNA).

“GCTTTGATTTCGTGCATCTATGGAGC [26-mer ssDNA]”: binds (single-stranded DNA).

GCUUUGAUUUCG [12-mer ssRNA]: binds.

“GCUUUGAUUUCGUGCAUCUAUGGAGC [26-mer ssRNA]”: binds.
